Results from patent US4594246A, “Pharmaceutically-acceptable amine salts of 6-β-halopenicillanic acids” (Leo Pharmaceutical Products, priority 1979, dated 1986).

Legend:
Alcaligenes faecalis GA = assay: Antibacterial spectrum (Table I); conditions: serial dilutions in fluid medium, inoculum 10^4 CFU (gramnegative organism)
Dipl. pneumoniae EA = assay: Antibacterial spectrum (Table I); conditions: serial dilutions in fluid medium, inoculum 10^ CFU (grampositive organism)
[1] = test system: Enterobact. aerogenes HC7A; assay: Antibacterial spectrum (Table I); conditions: serial dilutions in fluid medium, inoculum 10^4 CFU (gramnegative organism)
Escherichia coli HA2 = assay: Antibacterial spectrum (Table I); conditions: serial dilutions in fluid medium, inoculum 10^4 CFU (gramnegative organism)
[2] = test system: Escherichia coli HA58 (RTEM); assay: Antibacterial spectrum (Table I); conditions: serial dilutions in fluid medium, inoculum 10^4 CFU (gramnegative organism)
[3] = test system: Haemophilus influenzae IX3; assay: Antibacterial spectrum (Table I); conditions: serial dilutions in fluid medium, inoculum 10^4 CFU (gramnegative organism)
Kleb. pneumoniae HE = assay: Antibacterial spectrum (Table I); conditions: serial dilutions in fluid medium, inoculum 10^4 CFU (gramnegative organism)
[4] = test system: Neisseria gonorrhoeae DA2; assay: Antibacterial spectrum (Table I); conditions: serial dilutions in fluid medium, inoculum 10^4 CFU (gramnegative organism)
[5] = test system: Neisseria meningitidis DB; assay: Antibacterial spectrum (Table I); conditions: serial dilutions in fluid medium, inoculum 10^4 CFU (gramnegative organism)
Proteus vulg. HJ = assay: Antibacterial spectrum (Table I); conditions: serial dilutions in fluid medium, inoculum 10^4 CFU (gramnegative organism)
Pseud. aeruginosa BA2 = assay: Antibacterial spectrum (Table I); conditions: serial dilutions in fluid medium, inoculum 10^4 CFU (gramnegative organism)
Salm. typhimurium HL2 = assay: Antibacterial spectrum (Table I); conditions: serial dilutions in fluid medium, inoculum 10^4 CFU (gramnegative organism)
Shigella dystenteriae HR = assay: Antibacterial spectrum (Table I); conditions: serial dilutions in fluid medium, inoculum 10^4 CFU (gramnegative organism)
Staph. aureus CJ9 = assay: Antibacterial spectrum (Table I); conditions: serial dilutions in fluid medium, inoculum 10^ CFU (grampositive organism)
Strep. faecalis EI3 = assay: Antibacterial spectrum (Table I); conditions: serial dilutions in fluid medium, inoculum 10^ CFU (grampositive organism)
Strep. pyogenes EC = assay: Antibacterial spectrum (Table I); conditions: serial dilutions in fluid medium, inoculum 10^ CFU (grampositive organism)
β-lactamases = conditions: literature report; cited from earlier work

| SMILES | IC50 (Alcaligenes faecalis GA) | IC50 (Dipl. pneumoniae EA) | IC50 [1] | IC50 (Escherichia coli HA2) | IC50 [2] | IC50 [3] | IC50 (Kleb. pneumoniae HE) | IC50 [4] | IC50 [5] | IC50 (Proteus vulg. HJ) | IC50 (Pseud. aeruginosa BA2) | IC50 (Salm. typhimurium HL2) | IC50 (Shigella dystenteriae HR) | IC50 (Staph. aureus CJ9) | IC50 (Strep. faecalis EI3) | IC50 (Strep. pyogenes EC) | inhibition of β-lactamases reported in the literature (β-lactamases) |
| --- | --- | --- | --- | --- | --- | --- | --- | --- | --- | --- | --- | --- | --- | --- | --- | --- | --- |
| CC1(C)S[C@@H]2[C@H](I)C(=O)N2[C@H]1C(=O)O | 10 µg/mL (≈ 30.6 µM) | 5.0 µg/mL (≈ 15.3 µM) | > 100 µg/mL | > 100 µg/mL | > 100 µg/mL | > 100 µg/mL | > 100 µg/mL | 0.79 µg/mL (≈ 2.41 µM) | 1.6 µg/mL (≈ 4.89 µM) | 100 µg/mL (≈ 306 µM) | > 100 µg/mL | > 100 µg/mL | > 100 µg/mL | 63 µg/mL (≈ 193 µM) | > 100 µg/mL | 5.0 µg/mL (≈ 15.3 µM) | – |
| CC1(C)S[C@@H]2[C@@H](Br)C(=O)N2[C@H]1C(=O)O | – | – | – | – | – | – | – | – | – | – | – | – | – | – | – | – | no effect on these enzymes |
| CC1(C)S[C@@H]2[C@H](Br)C(=O)N2[C@H]1C(=O)O | 2.0 µg/mL (≈ 7.14 µM) | 1.6 µg/mL (≈ 5.71 µM) | 63 µg/mL (≈ 225 µM) | 50 µg/mL (≈ 178 µM) | 100 µg/mL (≈ 357 µM) | 32 µg/mL (≈ 114 µM) | 63 µg/mL (≈ 225 µM) | 0.25 µg/mL (≈ 0.892 µM) | 0.79 µg/mL (≈ 2.82 µM) | 40 µg/mL (≈ 143 µM) | > 100 µg/mL | 100 µg/mL (≈ 357 µM) | 50 µg/mL (≈ 178 µM) | 32 µg/mL (≈ 114 µM) | > 100 µg/mL | 6.3 µg/mL (≈ 22.5 µM) | – |
| CC1(C)S[C@@H]2[C@H](Cl)C(=O)N2[C@H]1C(=O)O | 2.5 µg/mL (≈ 10.6 µM) | 5.0 µg/mL (≈ 21.2 µM) | 63 µg/mL (≈ 267 µM) | 50 µg/mL (≈ 212 µM) | > 100 µg/mL | 20 µg/mL (≈ 84.9 µM) | 63 µg/mL (≈ 267 µM) | 0.20 µg/mL (≈ 0.849 µM) | 0.63 µg/mL (≈ 2.67 µM) | 40 µg/mL (≈ 170 µM) | > 100 µg/mL | 100 µg/mL (≈ 424 µM) | 40 µg/mL (≈ 170 µM) | 40 µg/mL (≈ 170 µM) | > 100 µg/mL | 6.3 µg/mL (≈ 26.7 µM) | – |

In brackets after ≈: the same amount, converted by molar mass.
